# Values of other authors as cited in patent US4296032A (priority 1979, dated 1981).
# Test system: β-lactamase
# Details: known from literature; cited from earlier work
smiles,measurement,value
CC1(C)S[C@@H]2[C@H](Br)C(=O)N2[C@H]1C(=O)O,β-lactamase inhibitor,β-lactamase inhibitor
